Test results from paper PMC6167350, “Small-molecule AgrA inhibitors F12 and F19 act as antivirulence agents against Gram-positive pathogens” (Scientific Reports, 2018).
For at least one entry, the source does not settle the construct or the ends of the probe. Where a protein sequence is shown, tags need not be part of it.

Target: T1, AgrA_C (C-terminal DNA-binding domain of AgrA) (UniProt Q8CNM5)
T1 sequence (looked up): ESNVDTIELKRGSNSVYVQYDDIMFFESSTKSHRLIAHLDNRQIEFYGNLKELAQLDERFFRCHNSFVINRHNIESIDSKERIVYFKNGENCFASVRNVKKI
Assay: EMSA
Settings: 1 uM AgrA_C, 1 nM DNA, 0.1 uM F19, 1% DMSO, complex band present, EMSA: 1 nM 32P-P3 DNA, constant 1% DMSO, pH and temperature not given (procedure cited from ref. 8), recombinant protein, residues 137-238, protein details: His tag (pET28b, NdeI/HindIII), label: 32P end label

**Q.** Does “TAGAAACAATCTTATTTTTTTTGAATATAC (double strand) [P3 DNA (agr P3 promoter oligonucleotide)]” bind?
**A.** binds
